{
  "source": "patent US5739276A",
  "about": "“Conotoxin peptides” (dated 1998)",
  "key": {"sodium current (INa+)": {"system": "sodium current (INa+)", "experiment": "Whole-cell patch clamp of inward sodium current (MrVIA)"}, "potassium currents": {"system": "potassium currents", "experiment": "Patch clamp of potassium currents (MrVIA)"}, "calcium currents": {"system": "calcium currents", "experiment": "Patch clamp of calcium currents (MrVIA)"}, "cultured Aplysia neuron": {"system": "cultured Aplysia neuron", "details": "350 nM final bath concentration, ten seconds after application"}},
  "data": [
    {"substance": "Ala-Cys-Arg-Lys-Lys-Trp-Glu-Tyr-Cys-Ile-Val-Pro-Ile-Ile-Gly-Phe-Ile-Tyr-Cys-Cys-Pro-Gly-Leu-Ile-Cys-Gly-Pro-Phe-Val-Cys-Val", "values": [
      {"measurement": "change in current voltage relationships on block", "setting": "sodium current (INa+); 40 nM", "value": "not associated with a change in the current voltage relationships"},
      {"measurement": "effect on INa+", "setting": "sodium current (INa+); 40 nM", "value": "Partial blockage"},
      {"measurement": "effect on inward INa+", "setting": "sodium current (INa+); 250 nM, 30 seconds after application, -50 to 20 mV", "value": "completely blocked"},
      {"measurement": "effect on potassium currents", "setting": "potassium currents", "value": "not affected"},
      {"measurement": "effect on calcium currents", "setting": "calcium currents", "value": "not affected"},
      {"measurement": "effect on action potential", "setting": "cultured Aplysia neuron", "value": "blocked"}
    ]}
  ]
}
